Anti-infective test results gathered from many reports (values: NIAID ChemDB through PubChem).

All rows: tests in culture; agent: Hepatitis B virus; method: PCR; read-out: EC50

a–b is a range or a potency band. ECn is the concentration giving n% inhibition of infection, replication or growth. Rows are shuffled and stem from different studies. Blank or dashed fields: not listed here.

structure	strain or isolate	cell line	result
Cn1cc2c(c1C(=O)Nc1ccc(F)c(Cl)c1)OCC1(CN(C(=O)C(=O)N3CC(F)(F)C3)C1)NS2(=O)=O	Genotype D	HepAD38	<0.5 µM
COc1ccc(-n2c(C(=O)NCc3ccc(F)cc3)c3n(c2=O)CCN(C(=O)c2ccc(Br)c(Cl)c2)C3)cc1		HepG2.117	0.1–0.5 µM
Cc1cc(C)n(-c2nc3c(c(=O)n2-c2ccc4c(ncn4C)n2)C[C@@H](C)N(C(=O)c2ccc(Br)c(C(F)(F)F)c2)C3)n1	Genotype D	HepG2.117	≤0.05 µM
CCNC(=O)C(=O)N1CCC(NS(=O)(=O)c2cn(C)c(C(=O)Nc3ccc(F)c(C)c3)c2F)CC1		HepAD38 cells	<0.1 µM
COC(=O)C1=C(CN2CC(F)(F)[C@@H]3[C@H]2CON3CC[C@](C)(O)C(=O)O)NC(c2nccs2)=N[C@H]1c1ccc(F)c(F)c1Cl		HepG2.2.15	0.138 µM
CNS(=O)(=O)NC1CCCC(NS(=O)(=O)c2cn(C)c(C(=O)Nc3ccc(F)c(F)c3)c2F)C1		HepAD38 cells	<0.1 µM
Cn1cc(NS(=O)(=O)Nc2ccc3c(C(=O)Nc4ccc(F)c(Cl)c4)n(C)nc3c2)cn1		HepAD38	100–1000 µM
Cc1cc(NC(=O)c2c3c(c(Cl)n2C)S(=O)(=O)N[C@H]2CN(C(=O)C(=O)N[C@H](C)C(F)(F)F)C[C@H]2CO3)ccc1F		HepAD38	<0.5 µM
C[C@@H]1Cc2nn3c(c2CN1C(=O)c1ccc(Cl)c(C#N)c1)C(=O)N([C@@H](C)c1ccc2c(c1)OC(F)(F)O2)CC3		HepG2.117	0.41 µM
Cc1c(S(=O)(=O)Nc2ccc3c(C(=O)Nc4ccc(F)c(Cl)c4)n(C)nc3c2)cnn1-c1ccccn1		HepAD38	100–1000 µM
Cc1cc(C)n(-c2nc3c(c(=O)n2-c2ccc(N4CC(O)C4)nc2)C[C@@H](C)N(C(=O)c2ccc(Br)c(C(F)(F)F)c2)C3)n1	Genotype D	HepG2.117	≤0.05 µM
COc1cccnc1-n1cc(S(=O)(=O)Nc2ccc3c(C(=O)Nc4ccc(F)c(Cl)c4)n(C)nc3c2)cn1		HepAD38	<100 µM
C[C@H](NC(=O)c1c2n(c(=O)n1-c1ccc(OCC(F)(F)F)cc1)CCN(C(=O)c1ccc(Br)c(Cl)c1)C2)c1cccc2nccnc12		HepG2.117	0.1–0.5 µM
C#CC1(NC(=O)C(=O)c2c(F)c(C(=O)Nc3ccc(F)c(C#N)c3)n(C)c2C)CC(F)(F)C1		HepG2.2.15	<0.001 µM
C[C@H](NC(=O)C(=O)N1CC2(COc3c(cn(C)c3C(=O)Nc3ccc(F)c(C(F)F)c3)S(=O)(=O)N2)C1)C(F)(F)F	Genotype D	HepAD38	<0.5 µM
O=C(NCc1ccc(OC(F)F)cc1F)c1c2n(c(=O)n1-c1ccc(OC3CC3)cc1)CCN(C(=O)c1ccc(Br)c(Cl)c1)C2		HepG2.117	0.1–0.5 µM
C[C@@H]1Cc2nn3c(c2CN1C(=O)c1ccc(Cl)c(C#N)c1)C(=O)N(Cc1ccc2ncoc2c1)CC3		HepG2.117	0.056 µM
COC(=O)C1=C(CN2CC(F)(F)[C@@H]3[C@H]2CON3C[C@H](OC)C(C)(C)C(=O)O)NC(c2nccs2)=N[C@H]1c1ccc(F)c(F)c1C		HepG2.2.15	0.003 µM
Cc1c(C(=O)C(=O)NC(C)(C)c2cn[nH]c2)c(C)n(C)c1C(=O)Nc1ccc(F)c(C#N)c1		HepG2.2.15	0.001–0.0099 µM
Cn1nc2cc(NS(=O)(=O)c3cnn(CC(=O)O)c3)ccc2c1C(=O)Nc1ccc(F)c(Cl)c1		HepAD38	>1000 µM
C[C@H](NC(=O)c1[nH]c(=O)n2c1CN(C(=O)c1ccc(Br)c(Cl)c1)CC2)c1ccccc1		HepG2.117	0.5–5 µM
Cc1cc(NC(=O)c2c3c(cn2C)S(=O)(=O)NC2CN(C(=O)C(=O)N[C@H](C)C(F)(F)F)CC2CO3)ccc1F		HepAD38	<0.5 µM
CCOC(=O)C1=C(CN2CC(F)(F)[C@@H]3[C@H]2CON3C[C@@H](F)C(C)(C)C(=O)O)NC(c2nccs2)=N[C@H]1c1cccc(F)c1Cl		HepG2.2.15	0.003 µM
Cn1nc2cc(NS(=O)(=O)c3cnn(CC4CNC4)c3)ccc2c1C(=O)Nc1ccc(F)c(Cl)c1		HepAD38	<100 µM
CCOC(=O)C1=C(CN2CC(F)(F)[C@@H]3[C@H]2CON3CC[C@@](C)(O)C(=O)O)NC(c2nccs2)=N[C@H]1c1ccc(F)c(F)c1Cl		HepG2.2.15	0.049 µM
Cc1cc(C)n(-c2nc3c(c(=O)n2-c2ccc(N4CCOCC4)nc2)C[C@@H](C)N(C(=O)c2ccc(Br)c(C(F)(F)F)c2)C3)n1	Genotype D	HepG2.117	≤0.05 µM
Cc1c(C(=O)C(=O)NC(C)(C)c2cnc[nH]2)c(C)n(C)c1C(=O)Nc1ccc(F)c(C#N)c1		HepG2.2.15	0.001–0.0099 µM
C[C@@H]1Cc2nn3c(c2CN1C(=O)c1ccc(Cl)c(C#N)c1Cl)C(=O)N([C@H](C)c1ccc(OC(F)F)cc1)CC3		HepG2.117	0.073 µM
CCOC(=O)C1=C(CN2CC(F)(F)[C@@H]3[C@H]2CON3C[C@H](O)[C@H](CC)C(=O)O)NC(c2nccs2)=N[C@H]1c1cccc(F)c1C		HepG2.2.15	0.057 µM
O=C(NCc1ccccc1-c1cccnn1)c1c2n(c(=O)n1-c1ccc(OC3CC3)cc1)CCN(C(=O)c1ccc(Br)c(Cl)c1)C2		HepG2.117	<0.1 µM
Cn1cc2c(c1C(=O)Nc1ccc(F)c(C(F)F)c1)OC[C@]1(CCN(C(=O)C(=O)NC(C)(C)C(F)(F)F)C1)NS2(=O)=O	Genotype D	HepAD38	<0.5 µM
Cc1c(C(=O)C(=O)NC2(c3cnc[nH]3)COC2)c(C)n(C)c1C(=O)Nc1ccc(F)c(C#N)c1		HepG2.2.15	0.001–0.0099 µM
C=C1[C@H](CO)[C@@H](O)C[C@@H]1n1cnc2c(=O)[nH]c(N)nc21	Genotype D		0.0019 µM
Cc1cc(C)n(-c2nc3c(c(=O)n2-c2ccc(OC[C@H](C)OP(=O)(O)O)cc2)C[C@@H](C)N(C(=O)c2ccc(Br)c(C(F)(F)F)c2)C3)n1	Genotype D	HepG2.117	0.05–0.5 µM
Cc1c(C(=O)C(=O)NC2(c3cn(C4CC4)nn3)CC(F)(F)C2)c(C)n(C)c1C(=O)Nc1ccc(F)c(C(F)(F)F)c1		HepG2.2.15	0.001–0.0099 µM
CCOC(=O)C1=C(CN2CC(F)(F)[C@@H]3[C@H]2CON3CCC(O)C(C)(C)C(=O)O)NC(c2nccs2)=N[C@H]1c1cccc(F)c1C		HepG2.2.15	0.024 µM
Cn1cc(S(=O)(=O)N[C@@H]2CCN(S(=O)(=O)c3ccc(F)cc3)C2)c(F)c1C(=O)Nc1ccc(F)c(F)c1		HepAD38 cells	<0.1 µM
C#C[C@](C)(CO)NC(=O)C(=O)c1c(C)c(C(=O)Nc2ccc(F)c(C#N)c2)n(C)c1C		HepG2.2.15	0.001–0.0099 µM
Cn1nc2cc(C(=O)NCCOCCOCCO)ccc2c1C(=O)Nc1ccc(F)c(Cl)c1		HepAD38	100–1000 µM
C[C@@H](NC(=O)C(=O)N1CCC2(COc3c(c(Cl)n(C)c3C(=O)Nc3ccc(F)c(F)c3)S(=O)(=O)N2)C1)C(F)(F)F	Genotype D	HepAD38	<0.5 µM
Cc1c(C(=O)C(=O)NC(C)(C)c2ccc[nH]c2=O)c(C)n(C)c1C(=O)Nc1ccc(F)c(C(F)(F)F)c1		HepG2.2.15	0.001–0.0099 µM
C[C@@H]1Cc2nn3c(c2CN1C(=O)c1ccc(Cl)c(C#N)c1)C(=O)N(Cc1ccc2nccn2c1)CC3		HepG2.117	0.35 µM
Cc1cc(C)n(-c2nc3c(c(=O)n2-c2ccc(OC[C@H](C)O)nc2)C[C@@H](C)N(C(=O)c2ccc(Br)c(C(F)(F)F)c2)C3)n1	Genotype D	HepG2.117	≤0.05 µM
CCOC(=O)C1=C(CN2CC(F)(F)[C@H]3[C@@H]2CCN3CC[C@@](C)(O)C(=O)O)NC(c2nccs2)=N[C@H]1c1ccc(F)c(F)c1F		HepG2.2.15	0.068 µM
C[C@@H](NC(=O)C(=O)N1CC[C@]2(COc3c(c(Cl)n(C)c3C(=O)Nc3ccc(F)c(C(F)F)c3)S(=O)(=O)N2)C1)C(F)(F)F	Genotype D	HepAD38	<0.5 µM
CNS(=O)(=O)N1CCC(C)(NS(=O)(=O)c2cn(C)c(C(=O)Nc3ccc(F)c(F)c3)c2F)CC1		HepAD38 cells	<0.1 µM
Cc1cc(NC(=O)c2c3c(cn2C)S(=O)(=O)N[C@H]2CN(C(=O)C(=O)NC4CC(F)(F)C4)C[C@H]2CS3)ccc1F		HepAD38	<0.5 µM
Cn1nc2cc(NS(=O)(=O)NC3CN(C(=O)OC(C)(C)C)C3)ccc2c1C(=O)Nc1ccc(F)c(Cl)c1		HepAD38	100–1000 µM
COc1ccc(-n2c(C(=O)N[C@H](C)c3ccc(Br)cc3)c3n(c2=O)CCN(C(=O)c2ccc(Br)c(Cl)c2)C3)cc1		HepG2.117	0.1–0.5 µM
C[C@H](NC(=O)C(=O)N1CCC2(CC1)COc1c(cn(C)c1C(=O)Nc1ccc(F)c(Cl)c1)S(=O)(=O)N2)C(F)(F)F	Genotype D	HepAD38	<0.5 µM
Cc1cc(NC(=O)c2c3c(cn2C)S(=O)(=O)N[C@H]2CN(C(=O)C(=O)N[C@H](C)C(F)(F)F)C[C@H]2CO3)ccc1F	Genotype C	HepG2	0.00072 µM
C[C@@H](NC(=O)C(=O)N1CC2(COc3c(c(Cl)n(C)c3C(=O)Nc3ccc(F)c(C(F)F)c3)S(=O)(=O)N2)C1)C(F)(F)F	Genotype D	HepAD38	<0.5 µM
CCOC(=O)C1=C(CN2CC(F)(F)[C@H]3[C@@H]2CCN3CC[C@@](C)(O)C(=O)O)NC(c2nccs2)=N[C@H]1c1cccc(F)c1C		HepG2.2.15	0.056 µM
Cc1cc(NC(=O)c2c3c(cn2C)S(=O)(=O)NC2CN(C(=O)C(=O)N[C@H](C)C(F)(F)F)CCC2CO3)ccc1F		HepAD38	<0.5 µM
COc1ccc(-n2c(C(=O)N[C@H](C)c3ccccc3)c3n(c2=O)CCN(C(=O)c2ccc(Cl)c(Cl)c2)C3)cc1		HepG2.117	0.5–5 µM
Cn1cc2c(c1C(=O)Nc1ccc(F)c(Cl)c1)OC[C@]1(CCN(C(=O)C(=O)NC(C)(C)C(F)(F)F)C1)NS2(=O)=O	Genotype D	HepAD38	<0.5 µM